Anti-infective test results gathered from many reports (values: NIAID ChemDB through PubChem).

Shared fields: whole-cell or culture tests; species: HIV-1; cell line: MT-4; measure: EC50

ECn is the concentration giving n% inhibition of infection, replication or growth. Conditions beyond the fields shown may differ between rows.

{"compound": "C#Cc1ccc(Nc2nccc(Oc3c(C)cc(-c4cn(Cc5cccc(C(=O)OC)c5)nn4)cc3C)n2)cc1", "strain or isolate": "IIIB", "mutations": "K103N", "read by": "MTT", "result": "0.36 µM"}
{"compound": "O=C1N(Cc2ccc(CO)cc2)[C@H](COc2ccccc2)[C@H](O)[C@@H](O)[C@@H](COc2ccccc2)N1Cc1ccc(CO)cc1", "strain or isolate": "IIIB", "mutations": "PR-L90M", "read by": "cytopathic effect / XTT", "result": "0.12 µM"}
{"compound": "CCc1c(CC23CC4CC(CC(C4)C2)C3)nc(SCC(=O)Nc2ccc(C(N)=O)cc2)[nH]c1=O", "strain or isolate": "IIIB", "read by": "MTT / absorbance", "result": "0.27 µM"}
{"compound": "Cc1cc(C)c(-n2nnnc2SCC(=O)Nc2ccc(Cl)cc2[N+](=O)[O-])c(C)c1", "read by": "p24", "setting": "10% FBS", "result": "<0.031 µM"}
{"compound": "CN(C)C1(c2nc(C(=O)NCc3ccc(F)cc3)c(O)c(=O)[nH]2)CCCC1", "strain or isolate": "IIIB", "read by": "p24", "setting": "50% human serum", "result": "<1 µM"}
{"compound": "Cc1cn([C@H]2C=C[C@@H](COC(=O)NCCSC(=O)OC[C@@H]3CC[C@H](n4cnc5c(=O)[nH]cnc54)O3)O2)c(=O)[nH]c1=O", "strain or isolate": "NNRTI-resistant (RT Y181C)", "mutations": "RT-Y181C", "read by": "cytopathic effect / MTT", "result": "13 µM"}
{"compound": "C#Cc1ccc(Nc2nccc(Oc3c(C)cc(-c4cn(-c5cccc(C(=O)OC)c5)nn4)cc3C)n2)cc1", "strain or isolate": "IIIB", "mutations": "F227L and V106A", "read by": "MTT", "result": "≥180 µM"}
{"compound": "C=C(C)CN1C(C)C(=S)Nc2ccc(Cl)cc2S1(=O)=O", "read by": "cytopathic effect / MTT", "result": ">47 µM"}
{"compound": "CN(c1ccccc1)c1nc(C(=O)NCc2ccc(F)cc2)c(O)c(=O)[nH]1", "strain or isolate": "IIIB", "read by": "p24", "setting": "10% FBS", "result": "<2.5 µM"}
{"compound": "Cc1ccnc2c1NC(=O)c1cccnc1N2C1CC1", "strain or isolate": "IIIB", "mutations": "F227L V106A", "read by": "MTT", "result": ">15.9 µM"}
{"compound": "Cc1cc(C)c(-n2nnnc2SCC(=O)Nc2ccccc2[N+](=O)[O-])c(C)c1", "read by": "p24", "setting": "50% human serum", "result": "<0.09 µM"}
{"compound": "CNC(C)[C@H]1O[C@H](O[C@@H]2[C@@H](O)[C@H](O[C@@H]3OC[C@@](C)(O)[C@@H](NC)[C@@H]3O)[C@@H](NC(=O)[C@@H](N)CCCN=C(N)N)C[C@H]2NC(=O)[C@@H](N)CCCN=C(N)N)[C@H](NC(=O)[C@@H](N)CCCN=C(N)N)[C@@H](O)[C@@H]1O", "strain or isolate": "AOM", "read by": "cytopathic effect / MTT", "result": "16 µM"}
{"compound": "CC1(C)[C@@H](O[C@H]2O[C@H](C(=O)O)[C@@H](O)[C@H](O)[C@H]2O[C@@H]2O[C@H](C(=O)O)[C@@H](O)[C@H](O)[C@H]2O)CC[C@]2(C)[C@H]3C(=O)C=C4[C@@H]5C[C@@](C)(C(=O)O)CC[C@]5(C)CC[C@@]4(C)[C@]3(C)CC[C@@H]12", "strain or isolate": "Clinical isolate GVK 4046", "read by": "ELISA", "result": "<500 µg/mL"}
{"compound": "Cc1cn([C@H]2C=C[C@@H](COC(=O)NCCSC(=O)OC[C@@H]3C=C[C@H](n4cc(C)c(=O)[nH]c4=O)O3)O2)c(=O)[nH]c1=O", "strain or isolate": "NNRTI-resistant (RT Y181C)", "mutations": "RT-Y181C", "read by": "cytopathic effect / MTT", "result": "7 µM"}
{"compound": "CC(C)=CCN1Cc2cc(Cl)cc3[nH]c(=S)n(c23)C[C@@H]1C", "read by": "cytopathic effect / MTT", "result": "0.03 µM"}
{"compound": "Cc1cc(C)c(-n2nnnc2SCC(=O)Nc2ccccc2I)c(C)c1", "read by": "p24", "setting": "50% human serum", "result": "<1.25 µM"}
{"compound": "Cc1cc(-c2ccc(C#N)cc2)cc(C)c1Oc1ccnc(S(=O)(=O)CC(=O)Nc2ccc(C#N)cc2)n1", "strain or isolate": "IIIB", "mutations": "L100I", "read by": "MTT", "result": "0.008 µM"}
{"compound": "CCOC(=O)CN(CC)S(=O)(=O)c1cc(Cl)ccc1[N+](=O)[O-]", "read by": "cytopathic effect / MTT", "result": ">200 µM"}
{"compound": "COc1ccc(CSc2nc(CC34CC5CC(CC(C5)C3)C4)c(C)c(=O)[nH]2)cc1", "strain or isolate": "IIIB", "read by": "MTT / absorbance", "result": ">2.12 µM"}
{"compound": "Cc1cn([C@H]2C[C@H](N=[N+]=[N-])[C@@H](COC(=O)CCC(=O)O)O2)c(=O)[nH]c1=O", "strain or isolate": "IIIB", "read by": "cytopathic effect / MTT", "result": "0.015 µg/mL"}
{"compound": "CCc1c(CC23CC4CC(CC(C4)C2)C3)nc(SCC(=O)Nc2ccc(S(N)(=O)=O)cc2)[nH]c1=O", "strain or isolate": "IIIB", "read by": "MTT / absorbance", "result": "0.12 µM"}
{"compound": "C#Cc1ccc(Nc2nccc(Oc3c(C)cc(-c4cn(CC(=O)Nc5ccc(F)cc5)nn4)cc3C)n2)cc1", "strain or isolate": "IIIB", "mutations": "Y188L", "read by": "MTT", "result": ">1.41 µM"}
{"compound": "CC(C)=CCN1c2cc(Cl)cc3[nH]c(=S)n(c23)C[C@@H]1C", "mutations": "RT-D67N K70R T215Y K219Q L100I", "result": "<0.2 µM"}
{"compound": "C#Cc1ccc(Nc2nccc(Oc3c(C)cc(-c4cn(-c5ccc(C(=O)O)cc5)nn4)cc3C)n2)cc1", "strain or isolate": "RES056", "read by": "MTT", "result": "3.27 µM"}
{"compound": "Cc1cc(C)cc(CN2C(C)C(=O)Nc3ccc(Cl)cc3S2(=O)=O)c1", "read by": "cytopathic effect / MTT", "result": "0.12 µM"}
{"compound": "Cc1cc(-c2ccc(C#N)cc2)cc(C)c1Oc1ccnc(S(=O)(=O)CC(=O)NC(C)c2ccc(Cl)cc2)n1", "strain or isolate": "IIIB", "read by": "MTT", "result": ">3.82 µM"}
{"compound": "c1cc(CNCCCN2CCCCC2)ccc1CNCCCN1CCCCC1", "read by": "MTT", "result": "0.362 µM"}
{"compound": "C#Cc1ccc(Nc2nccc(Oc3c(C)cc(-c4cn(Cc5ccc([N+](=O)[O-])cc5)nn4)cc3C)n2)cc1", "strain or isolate": "IIIB", "mutations": "E138K", "read by": "MTT", "result": "0.33 µM"}
{"compound": "O=C1Cc2ccccc2C(=O)N1O", "strain or isolate": "IIIB", "read by": "MTT", "result": ">27.05 µM"}
{"compound": "Cc1cc(C#N)cc(C)c1Oc1nc(Nc2ccc(C#N)cc2)nc(N)c1Br", "strain or isolate": "IIIB", "mutations": "Y181C", "read by": "MTT", "result": "0.012 µM"}
{"compound": "C#Cc1ccc(Nc2nccc(Oc3c(C)cc(-c4cn(Cc5ccc(C#N)cc5)nn4)cc3C)n2)cc1", "strain or isolate": "IIIB", "mutations": "Y181C", "read by": "MTT", "result": ">7.18 µM"}
{"compound": "CN(C)C1(c2nc(C(=O)NCc3ccc(F)cc3)c(O)c(=O)[nH]2)CC1", "strain or isolate": "IIIB", "read by": "p24", "setting": "50% human serum", "result": "<1 µM"}
{"compound": "NC(N)=NCCC[C@H](N)C(=O)NC[C@@H]1OC(O[C@H]2[C@@H](O)[C@H](O[C@@H]3[C@@H](O)[C@H](NC(=O)[C@@H](N)CCCN=C(N)N)C[C@H](NC(=O)[C@@H](N)CCCN=C(N)N)[C@H]3O[C@H]3O[C@H](CNC(=O)[C@@H](N)CCCN=C(N)N)[C@@H](O)[C@H](O)[C@H]3NC(=O)[C@@H](N)CCCN=C(N)N)O[C@@H]2CO)[C@H](NC(=O)[C@@H](N)CCCN=C(N)N)[C@@H](O)[C@@H]1O", "strain or isolate": "NL4-3", "read by": "cytopathic effect / MTT", "result": "0.73 µM"}
{"compound": "Cc1cn([C@H]2C[C@H](N=[N+]=[N-])[C@@H](COC(=O)CCC(=O)OC[C@H]3O[C@@H]4O[C@H]5[C@H](O)[C@@H](O)[C@@H](O[C@H]6[C@H](O)[C@@H](O)[C@@H](O[C@H]7[C@H](O)[C@@H](O)[C@@H](O[C@H]8[C@H](O)[C@@H](O)[C@@H](O[C@H]9[C@H](O)[C@@H](O)[C@@H](O[C@H]3[C@H](O)[C@H]4O)O[C@@H]9CO)O[C@@H]8CO)O[C@@H]7CO)O[C@@H]6CO)O[C@@H]5CO)O2)c(=O)[nH]c1=O", "strain or isolate": "IIIB", "read by": "cytopathic effect / MTT", "result": "0.005 µg/mL"}
{"compound": "CN1CCN(C)C(C)(c2nc(C(=O)NCc3ccc(F)cc3)c(O)c(=O)[nH]2)C1", "strain or isolate": "IIIB", "read by": "p24", "setting": "10% FBS", "result": "<0.06 µM"}
{"compound": "CC(C)=CCN1C(C)Cn2c(=O)n(CC=C(C)C)c3cc(Cl)cc(c32)S1(=O)=O", "read by": "cytopathic effect / MTT", "result": ">63 µM"}
{"compound": "c1cc(CN2CCCNCCNCCCNCC2)ccc1CN1CCCNCCNCCCNCC1", "strain or isolate": "AMD3100-resistant", "read by": "cytopathic effect / MTT", "result": ">100 µM"}
{"compound": "C[C@H]1C(=O)Nc2ccc(Cl)cc2S(=O)(=O)N1Cc1c(F)cccc1F", "read by": "cytopathic effect / MTT", "result": "0.07 µM"}
{"compound": "CCc1c(CC23CC4CC(CC(C4)C2)C3)nc(SCC(=O)Nc2ccc(C)cc2[N+](=O)[O-])[nH]c1=O", "strain or isolate": "RES056", "read by": "MTT / absorbance", "result": ">23.16 µM"}
{"compound": "Nc1ccn([C@H]2CC[C@@H](CO)O2)c(=O)n1", "strain or isolate": "IIIB", "read by": "cytopathic effect / MTT", "result": "0.03 µg/mL"}
{"compound": "CC(C)CN(C[C@@H](O)[C@H](Cc1ccccc1)NC(=O)O[C@H]1CCOC1)S(=O)(=O)c1ccc(N)cc1", "strain or isolate": "NL4-3", "mutations": "PR-D30N M46I A71V", "read by": "p24", "result": "<0.04 µM"}
{"compound": "Cc1cn([C@H]2C=C[C@@H](CO)O2)c(=O)[nH]c1=O", "strain or isolate": "WT", "read by": "cytopathic effect / MTT", "result": "1.7 µM"}
{"compound": "Cc1cn([C@H]2C[C@H](N=[N+]=[N-])[C@@H](CO)O2)c(=O)[nH]c1=O", "strain or isolate": "NL4-3", "mutations": "AMD3100-resistant", "read by": "cytopathic effect / MTT", "result": "0.008 µM"}
{"compound": "Cc1cc(C)c(-n2nnnc2SCC(=O)Nc2ccc(C(N)=O)cc2Cl)c(C)c1", "read by": "p24", "setting": "10% FBS", "result": "<0.008 µM"}
{"compound": "CC1CCCCN1CCCNCc1ccc(CC(=O)NCCCN2CCCCC2C)cc1", "read by": "MTT", "result": "1.012 µM"}
{"compound": "C#Cc1ccc(Nc2nccc(Oc3c(C)cc(-c4cn(Cc5cccc([N+](=O)[O-])c5)nn4)cc3C)n2)cc1", "strain or isolate": "IIIB", "mutations": "Y188L", "read by": "MTT", "result": "4.54 µM"}
{"compound": "c1cn(CCCNCc2ccc(CNCCCn3ccnc3)cc2)cn1", "read by": "MTT", "result": ">168.8 µM"}
{"compound": "CN(C)C(C)(c1nc(C(=O)NCc2ccc(F)cc2)c(O)c(=O)[nH]1)C(F)(F)F", "strain or isolate": "IIIB", "read by": "p24", "setting": "10% FBS", "result": "<0.06 µM"}
{"compound": "Cc1cn([C@H]2C[C@H](N=[N+]=[N-])[C@@H](CO)O2)c(=O)[nH]c1=O", "strain or isolate": "IIIB", "read by": "MTT / absorbance", "result": "0.0067 µM"}
{"compound": "c1cc(CNCCCN2CCOCC2)ccc1CNCCCN1CCCC1", "read by": "MTT", "result": "4.271 µM"}

Repeating the final 7 entries:

{"compound": "Cc1cc(C)c(-n2nnnc2SCC(=O)Nc2ccc(C(N)=O)cc2Cl)c(C)c1", "read by": "p24", "setting": "10% FBS", "result": "<0.008 µM"}
{"compound": "CC1CCCCN1CCCNCc1ccc(CC(=O)NCCCN2CCCCC2C)cc1", "read by": "MTT", "result": "1.012 µM"}
{"compound": "C#Cc1ccc(Nc2nccc(Oc3c(C)cc(-c4cn(Cc5cccc([N+](=O)[O-])c5)nn4)cc3C)n2)cc1", "strain or isolate": "IIIB", "mutations": "Y188L", "read by": "MTT", "result": "4.54 µM"}
{"compound": "c1cn(CCCNCc2ccc(CNCCCn3ccnc3)cc2)cn1", "read by": "MTT", "result": ">168.8 µM"}
{"compound": "CN(C)C(C)(c1nc(C(=O)NCc2ccc(F)cc2)c(O)c(=O)[nH]1)C(F)(F)F", "strain or isolate": "IIIB", "read by": "p24", "setting": "10% FBS", "result": "<0.06 µM"}
{"compound": "Cc1cn([C@H]2C[C@H](N=[N+]=[N-])[C@@H](CO)O2)c(=O)[nH]c1=O", "strain or isolate": "IIIB", "read by": "MTT / absorbance", "result": "0.0067 µM"}
{"compound": "c1cc(CNCCCN2CCOCC2)ccc1CNCCCN1CCCC1", "read by": "MTT", "result": "4.271 µM"}